The values that follow come from ChEMBL document CHEMBL1671691 (Antimicrob Agents Chemother, 2010).

Experiment [1] has as its system Influenza A virus. Nature of the experiment: Antiviral activity against adamantane-, oseltamivir-, zanamivir-susceptible Influenza A virus (A/swine/Michigan/09/2007 (H1N2)) harboring M2 V27I, V28D mutant infected in MDCK cells assessed as inhibition of viral replication after 3 days by microscopic analysis using crystal violet stain.
Experiment [2] has as its system Influenza A virus. Nature of the experiment: Antiviral activity against adamantane-, oseltamivir-, zanamivir-susceptible Influenza A virus (A/Swine/Texas/14/2008 (H1N1)) harboring M2 V27T, V28D mutant infected in MDCK cells assessed as inhibition of viral replication after 3 days by microscopic analysis using crystal violet stain.

In the case of `NC(=O)c1nc(F)cnc1O` [FAVIPIRAVIR], the EC50 with Influenza A virus [1] turned out to be 2.23 µM; in the experiment with Influenza A virus [2] it was 4.52 µM.
